Reference: publication PMC9093745, “Carbohydrate Metabolism in Bacteria: Alternative Specificities in ADP-Glucose Pyrophosphorylases Open Novel Metabolic Scenarios and Biotechnological Tools” (Frontiers in Microbiology, 2022)

Assays:
[1] = tested on: N[C@H]1[C@@H](OP(=O)(O)O)O[C@H](CO)[C@@H](O)[C@@H]1O; assay: purified protein; conditions: ATP co-substrate, Mg2+, pH 8.0, 37°C, no effector
[2] = tested on: O=P(O)(O)O[C@H]1O[C@H](CO)[C@@H](O)[C@H](O)[C@H]1O; assay: purified protein; conditions: ATP co-substrate, Mg2+, pH 8.0, 37°C, no effector

Substance: A. tumefaciens ADP-Glc PPase (Agrobacterium tumefaciens; E187A)
- Km [1]: 1500 ± 230 µM
- Vmax [1]: 0.012 µmol/min/mg
- Vmax/Km [1]: 8 µL/min/mg
- Km [2]: 427 ± 49 µM
- Vmax [2]: 0.27 µmol/min/mg
- Vmax/Km [2]: 632 µL/min/mg
